Record: PubChem BioAssay AID1224833 (University of Georgia, 2016)

- Screen: 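Human genes whose knock-down alters rotavirus replication in monkey cells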 (primary screen)
- Cell system: monkey MA104 kidney cells
- Reagents: siRNA pool against human genes, 50 nM
- Duration: 48 h knock-down before infection; read 24 h after infection
- Challenge: infection with rotavirus strain RV3 two days after transfection; infectious dose for this stage not given
- Detection: 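Rotavirus antigen per well by fluorescent immunoassay, normalised to non-targeting control wells on each plate and given as a standard z-score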
- Direction: z-score vs non-targeting control: higher = more rotavirus replication than with non-targeting control
- Call rule: In these data the active calls have z-score vs non-targeting control at about -1 or lower, or at about 1 or higher
- Meaning of the calls: active = z-score beyond 1 either way; inactive = z-score within 1 of zero
In all, the deposit lists about 12,000 reagents; this is an unselected part. Over the whole deposit, about 5,600 (46%) got an active call. 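Active calls cover z-scores past 1 in both directions, so they include lowered as well as raised rotavirus replication.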

no.	gene	z-score vs non-targeting control	call
1	UTP6	0.0789	inactive
2	CD300A	-0.217	inactive
3	SCHIP1	-0.874	inactive
4	CDKN2A	-1.45	active
5	ANKRD36	0.268	inactive
6	NSA2	0.983	inactive
7	OPN1LW	-1.07	active
8	N4BP2L2	-0.0057	inactive
9	ZBTB38	-0.324	inactive
10	RSAD2	-0.634	inactive
11	TRARG1	0.608	inactive
12	SIGIRR	-0.677	inactive
13	XPNPEP2	1.84	active
14	NR4A1	-0.783	inactive
15	ADAMTS10	0.687	inactive
16	PTGR3	-0.525	inactive
17	ANKMY1	-0.136	inactive
18	ACTN4	-0.0703	inactive
19	UBXN1	-2.33	active
20	CRIPAK (retired record)	-1.58	active
21	KCTD17	0.673	inactive
22	MRPL24	0.602	inactive
23	ATG16L2	0.454	inactive
24	ADGRL4	-0.879	inactive
25	C22orf42	1.97	active
26	ZNF213	-1.31	active
27	TUBA1B	-1.91	active
28	TAF7L	0.615	inactive
29	ZNF165	0.555	inactive
30	PRMT2	1.02	active
31	HLA-DOB	0.784	inactive
32	GRB14	1.56	active
33	SAPCD1	-2.44	active
34	FRZB	2.83	active
35	VPS45	0.0232	inactive
36	TSPAN11	-2.53	active
37	C3AR1	-0.697	inactive
38	SLC36A4	-0.659	inactive
39	RSRP1	0.882	inactive
40	BOLA2B	-1.04	active
41	GPRIN2	1.68	active
42	POLR3K	0.604	inactive
43	NISCH	-2.15	active
44	ERGIC3	1.38	active
45	TNNT1	0.217	inactive
46	JAML	2	active
47	RTP4	1.4	active
48	IL15RA	-0.0982	inactive
49	CCNY	1.7	active
50	GEMIN4	0.498	inactive
51	OR2B6	1.54	active
52	DENND2C	0.738	inactive
53	BCL2L1	-1.65	active
54	CLSPN	-2.87	active
55	ZNF71	0.542	inactive
56	TMED2	1.26	active
57	NLRP4	0.723	inactive
58	CRNKL1	-1.21	active
59	ZNF446	-1.71	active
60	IGSF3	-2.25	active
61	COL17A1	-1.11	active
62	SEC61A1	-1.34	active
63	PSRC1	0.291	inactive
64	YIPF2	-1.16	active
65	MMD	-1.98	active
66	PLP1	0.9	inactive
67	LASP1	-0.453	inactive
68	AKAP11	-0.777	inactive
69	ZNF598	-1.08	active
70	ARMCX1	-0.33	inactive
71	BRIP1	2.14	active
72	TMC5	-0.411	inactive
73	DCX	-0.0469	inactive
74	CLDN15	-1.04	active
75	ZNF317	-1.27	active
76	ASTN1	1.5	active
77	SPEF1	-0.699	inactive
78	AGAP1	0.391	inactive
79	CSF3R	-2.44	active
80	UBXN2A	-0.871	inactive
81	CPSF2	0.148	inactive
82	ARPC1A	-1.3	active
83	MRPL19	0.351	inactive
84	GLUL	-2.27	active

In a second layout: results already given
| gene | z-score vs non-targeting control | call |
| --- | --- | --- |
| NR4A1 | -0.783 | inactive |
| ADAMTS10 | 0.687 | inactive |
| PTGR3 | -0.525 | inactive |
| ANKMY1 | -0.136 | inactive |
| ACTN4 | -0.0703 | inactive |
| UBXN1 | -2.33 | active |
| CRIPAK (retired record) | -1.58 | active |
| KCTD17 | 0.673 | inactive |
| MRPL24 | 0.602 | inactive |
| ATG16L2 | 0.454 | inactive |
| ADGRL4 | -0.879 | inactive |
| C22orf42 | 1.97 | active |
| ZNF213 | -1.31 | active |
| TUBA1B | -1.91 | active |

Further results follow:
no.	gene	z-score vs non-targeting control	call
85	KRTCAP2	0.867	inactive
86	IGDCC4	-0.27	inactive
87	SLC12A3	-2.08	active
88	NAA25	0.921	inactive
89	KLK5	-1.97	active
90	HPS1	-0.441	inactive
91	VIPAS39	0.561	inactive
92	ASIP	-0.995	inactive
93	SETD4	-0.563	inactive
94	HIBADH	0.504	inactive
95	BCL7A	0.453	inactive
96	PRPF31	-1.39	active
97	RBM8A	-2.01	active
98	TMEM255A	-0.481	inactive
99	ST18	-0.872	inactive
100	ZNF329	-1.01	active
101	ACSL1	-0.677	inactive
102	MICB	-0.633	inactive
103	NOB1	-0.213	inactive
104	TCEAL9	2.04	active
105	ETV7	-2.23	active
106	CCNL1	0.543	inactive
107	GPRIN3	-2.15	active
108	SCAF4	-2.5	active
109	TMC8	0.357	inactive
110	EVX2	-1.56	active
111	BORCS6	-0.792	inactive
112	TNFRSF10A	-0.63	inactive
113	ZNF677	-0.621	inactive
114	HYCC2	1.82	active
115	ACAP1	0.592	inactive
116	CD276	0.542	inactive
117	SUMO4	-0.52	inactive
118	SMPDL3B	-1.26	active
119	CNOT9	0.63	inactive
120	ITGB3BP	0.372	inactive
121	MIR9-1HG	-0.867	inactive
122	IQCH	-1.62	active
123	PAIP1	-0.72	inactive
124	ARRDC4	0.352	inactive
125	SBNO2	-1.61	active
126	SARS1	-2.8	active
127	PARP10	-0.329	inactive
128	GPX5	-1.94	active
129	PRELID1	-0.46	inactive
130	OR2C1	-0.544	inactive
131	HARS2	-1.38	active
132	MDH1B	-0.841	inactive
133	SCGB2A1	-1.74	active
134	ABCE1	-0.864	inactive
135	METTL25B	2.21	active
136	DNAJB5	-1.33	active
137	NFXL1	0.848	inactive
138	SEMA4G	-2.28	active
139	RNASE3	0.823	inactive
140	TMED7	0.733	inactive
